{"source": "patent US20230126310A1", "about": "(priority 2020, published 2023)", "note": "Structures can show the parent of a compound that is named as a salt."}
{"tested_on": "SARS-CoV-2", "conditions": "not given"}
{"smiles": "CC(C)(C)c1ccc(/C=C/C(=O)Nc2ccc3c(c2)OCCO3)cc1", "note": "[AMG-9810]", "SI: selectivity index (CC50/IC50)": 1}
{"smiles": "C/C(=N\\NC(=S)N1CCC1)c1ccccn1", "note": "[NSC319726]", "SI: selectivity index (CC50/IC50)": 1}
{"smiles": "C[CH2][Hg][S]c1ccccc1C(=O)[O-].[Na+]", "note": "[THIMEROSAL]", "SI: selectivity index (CC50/IC50)": 8}
{"smiles": "CC(C)(C)c1cc(/C=C(\\C#N)C(N)=S)cc(C(C)(C)C)c1O", "note": "[Tyrphostin AG 879 (AG 879), Tyrphostin AG 879]", "SI: selectivity index (CC50/IC50)": 7}
{"tested_on": "SARS-CoV-2", "conditions": "CC50/IC50"}
{"smiles": "FC(F)(F)Oc1ccc2nc(-c3ccc(OCCOCCOc4ccc(-c5nc6ccc(OC(F)(F)F)cc6[nH]5)nc4)cn3)[nH]c2c1", "note": "[AI-10-49]", "SI: selectivity index (CC50/IC50)": 35}
{"smiles": "C=C(c1ccccc1OCc1cccc(Cl)c1)n1ccnc1", "note": "[Cloconazole HCl]", "SI: selectivity index (CC50/IC50)": 2}
{"smiles": "CCCCC1(C2CCCC2)Cc2cc(OCCCC(=O)O)c(Cl)c(Cl)c2C1=O", "note": "(stereo not shown) [DCPIB]", "SI: selectivity index (CC50/IC50)": 2}
{"smiles": "Cn1cc(-c2ccc3c(c2)CCN3C(=O)Cc2cccc(C(F)(F)F)c2)c2c(N)ncnc21", "note": "[GSK2606414]", "SI: selectivity index (CC50/IC50)": ">100"}
{"smiles": "Cc1nn(C)c2nc(NNC(=O)Nc3cc(Cl)nc(Cl)c3)cc(C(C)C)c12", "note": "[JTE-013]", "SI: selectivity index (CC50/IC50)": 3}
{"smiles": "CCOC(=O)c1ncc2[nH]c3ccc(OCc4ccccc4)cc3c2c1COC.Cl", "note": "[ZK-93423]", "SI: selectivity index (CC50/IC50)": 1}
